A mixed list of measured activities; the numbers were collected in NIAID ChemDB.

Shared fields: tests in culture; organism: Hepatitis C virus; read by: replicon; endpoint: EC50

Conditions beyond the fields shown may differ between rows. a–b is a range or a potency band. ECn: concentration that inhibits the pathogen or its effect by n%. An empty or dashed field is not shown.

compound	cell line	strain or isolate	setting	value
CNC(=O)c1c(-c2ccc(F)cc2)oc2cc(NC(N)=O)c(OC(C)C)cc12	Huh7	-	-	<10 µM
CC(C)c1cccc(Cl)c1-c1cc(-c2cccc(NC(=O)C(Cl)Cl)c2)on1	-	-	-	≤10 µM
C=C[C@H]1C[C@@]1(NC(=O)[C@@H]1C[C@@H](Oc2cc(-c3ccccc3)nc3cc(OC)ccc23)CN1C(=O)[C@@H](NC(=O)OC1CCCC1)C(C)(C)C)C(=O)NS(=O)(=O)C1(C)CC1	Huh7	1b	-	<0.05 µM
CC(C)c1ccccc1-c1cc(-c2cccc(N(C)C(=O)C(Cl)Cl)c2)on1	-	-	-	≤10 µM
CC(C)c1ccc(Nc2s[nH]c(=O)c2C#N)cc1	Huh7	-	-	1–10 µM
COc1cc(OC)cc(N(C)c2cc(OP(=O)(O)OP(=O)(O)O)c(N)cc2C(=O)O)c1	Huh 5-2	-	-	>50 µg/mL
CCc1ccc2oc(-c3ccccc3)c(C(=O)NC)c2c1	Huh7	-	-	<30 µM
N#Cc1c(NCC2CCCO2)s[nH]c1=O	Huh7	-	-	>50 µM
CCC(=O)Nc1ccc(-c2ccc3nc(N)nc(OCCOC)c3n2)cc1	Huh7	-	-	0.3–1 µM
C=CC1CC1(NC(=O)[C@@H]1C[C@@H](Oc2cc(-c3ccccc3)nc3cc(OC)ccc23)CN1C(=O)[C@@H](NC(=O)OC(C)(C)C)C(C)(C)C)C(=O)NS(=O)(=O)C1(CC2CC2)CC1	Huh7	1b	-	<0.05 µM
CC(C)(N)C(=O)Nc1ccc(-c2ccc3nc(N)nc(O[C@@H]4CCOC4)c3n2)cc1	Huh7	-	-	<0.3 µM
CC1CCC(C(=O)N(c2cc(-c3ccc(NC(=O)c4cnccn4)cc3)sc2C(=O)O)C(C)C)CC1	-	1b	-	<0.5 µM
CCOc1nc(N)nc2c1ncn2[C@@H]1O[C@@H]2COP(=O)(OC(C)C)O[C@H]2[C@@]1(C)F	-	2a	105 d	2.32 µM
CB1OC[C@@H](C)C1NC(=O)[C@@H]1C[C@@H]2CN1C(=O)[C@H](C(C)(C)C)NC(=O)OCC(C)(C)CCCCc1cccc3c1CN(C3)C(=O)O2	-	-	genotype 1a	33 µM
Nc1ncnc2c1c(-c1cccs1)cn2[C@@H]1O[C@H](CO)[C@@H](O)C1(F)F	HCV replicon	1b	-	2.93 µM
CCOc1nc(NCc2ccc(S(N)(=O)=O)cc2)nc2ccc(-c3ccc(NC(=O)N4CCOCC4)cc3)nc12	-	-	-	<0.1 µM
Cc1cc(C)n2nc(CC3=C(O)CC(CCc4ccc(C(C)(C)C#N)c(F)c4)(C4CCCC4)OC3=O)nc2n1	-	WT	-	0.018 µM
Nc1ncnc2c1c(-c1cccs1)cn2[C@@H]1O[C@H](CO)[C@@H](O)[C@H]1F	HCV replicon	2a	-	7.96 µM
C[C@H]1COB(O)C1NC(=O)[C@@H]1C[C@@H]2CN1C(=O)[C@H](C(C)(C)C)NC(=O)OCC(C)(C)CCCCc1cccc3c1CN(C3)C(=O)O2	-	-	genotype 1a	1.9 µM
CCOC(=O)c1csc(COc2cc3c(C(=O)NC)c(-c4ccc(F)cc4)oc3cc2N(C)S(C)(=O)=O)n1	Huh7	-	-	<1 µM
Nc1ncnc2c1c(I)cn2[C@@H]1O[C@H](CO)[C@@H](O)[C@H]1F	HCV replicon	1a	-	1.3 µM
CC(C)c1cccc(C(C)C)c1Nc1s[nH]c(=O)c1C#N	Huh7	-	-	10–50 µM
CNC(=O)c1c(-c2ccc(F)cc2)oc2ccc(OCc3cscn3)cc12	Huh7	-	-	>30 µM
NC(=O)COc1ccc2c(c1)S(=O)(=O)N=C(c1c(O)c3cc(F)ccc3n(CCC3CC3)c1=O)N2	-	1b 46002	-	0.021 µM
CNC(=O)c1ccc(-c2ccc3nc(N)nc(OC(C)C)c3n2)cc1Cl	Huh7	-	-	>1 µM
CNC(=O)c1c(-c2ccc(F)cc2)oc2cc(C(C)(C)N)c(OC)cc12	Huh7	-	-	<30 µM
CCOc1nc(N)nc2ccc(-c3ccc(NC(=O)C4(N)CC4)cc3)nc12	Huh7	-	-	<0.3 µM
Cc1noc(C)c1C(=O)Nc1ccc(-c2cc(N(C(=O)C3CCC(C)CC3)C(C)C)c(C(=O)O)s2)cc1	-	1a	-	>0.5 µM
NS(=O)(=O)c1ccc(CNc2nc(NCC(F)(F)F)c3nc(-c4ccc(F)c(S(=O)(=O)N[C@@H]5CCNC5)c4)ccc3n2)cc1	-	-	-	<0.1 µM
COc1ccc(NC(=O)C(Cl)Cl)cc1-c1cc(-c2c(Cl)cccc2Cl)no1	-	-	-	≤10 µM
Nc1ncnc2c1c(I)cn2[C@@H]1O[C@H](CO)[C@@H](O)C1(F)F	HCV replicon	2a	-	1.12 µM
Cc1cc(C(=O)Nc2ccc(-c3cc(N(C(=O)C4CCC(C)CC4)C(C)C)c(C(=O)O)s3)cc2)nn1C	-	1a	-	<0.5 µM
O=C(Nc1cc(-c2cc(-c3c(Cl)cccc3Cl)no2)ccc1N1CCOCC1)C(Cl)Cl	-	-	-	>10 µM
COCC(C)N(C(=O)C1CCC(C)CC1)c1cc(-c2ccc(NC(=O)c3cn(C)cn3)cc2)sc1C(=O)O	-	1a	-	<0.5 µM
O=C(Nc1cccc(-c2noc(-c3c(Cl)cccc3Cl)n2)c1)C(Cl)Cl	-	-	-	≤10 µM
C=CCC1(S(=O)(=O)NC(=O)C2(NC(=O)[C@@H]3C[C@@H](Oc4cc(-c5ccccc5)nc5cc(OC)ccc45)CN3C(=O)[C@@H](NC(=O)OC(C)(C)C)C(C)(C)C)CC2)CC1	Huh7	1b	-	0.5–5 µM
Nc1ncnc2c1c(-c1ccc3ccccc3c1)cn2[C@@H]1O[C@H](CO)[C@@H](O)C1(F)F	HCV replicon	1a	-	1.43 µM
CCOc1nc(NCc2ccc(F)cc2)nc2ccc(-c3ccc(NC(=O)C4(O)CC4)cc3)nc12	-	-	-	<0.1 µM
N#Cc1c(Nc2ccc(Cl)cn2)s[nH]c1=O	Huh7	-	-	10–50 µM
NS(=O)(=O)c1ccc(CNc2nc(OC3CCC3)c3nc(-c4ccc(F)cc4)ccc3n2)cc1	-	-	-	<0.1 µM
N#Cc1c(Nc2cc(F)c(Br)c(F)c2)s[nH]c1=O	Huh7	-	-	<1 µM
CCOC(=O)C1CCN(c2cccc(Cl)c2-c2cc(-c3cccc(NC(=O)C(Cl)Cl)c3)on2)CC1	-	-	-	>10 µM
COc1ccc2c(O[C@@H]3C[C@@H](C(=O)N[C@@]4(C(=O)NS(=O)(=O)C5(CC6CC6)CC5)CC4C4CC4)N(C(=O)[C@@H](NC(=O)OC(C)(C)C)C(C)(C)C)C3)cc(-c3ccccc3)nc2c1	Huh7	1b	-	0.05–0.5 µM
CNC(=O)c1c(N(C)S(C)(=O)=O)cc2oc(-c3ccc(F)cc3)c(C(=O)NC)c2c1OC	Huh7	-	-	<10 µM
COc1cccc(Cl)c1-c1cc(-c2cccc(NC(=O)C(Cl)Cl)c2)on1	-	-	-	≤10 µM
Nc1ncnc2c1c(-c1ccco1)cn2[C@H]1O[C@H](CO)[C@@H](O)C1(F)F	HCV replicon	2a	-	13.76 µM
CC1CCC(C(=O)N(c2cc(-c3ccc(NC(=O)c4cscn4)cc3)sc2C(=O)O)C2COCOC2)CC1	-	1a	-	<0.5 µM
CCOc1nc(N)nc2ccc(-c3ccc(NC(=O)C(C)(C)N)cc3)nc12	Huh7	-	-	<0.3 µM
COC(=O)c1cccc(Nc2s[nH]c(=O)c2C#N)c1	Huh7	-	-	>50 µM
Nc1ncnc2c1c(-c1ccco1)cn2[C@@H]1O[C@H](CO)[C@@H](O)[C@H]1F	HCV replicon	2a	-	10.74 µM
N#Cc1c(Nc2ccc(I)cc2)s[nH]c1=O	Huh7	-	-	1–10 µM
COc1ccc2c(O[C@@H]3C[C@H]4C(=O)N[C@]5(C(=O)O)C[C@H]5/C=C\CCCCC[C@H](NC(=O)OC5CCCC5)C(=O)N4C3)cc(-c3csc(NC(C)C)n3)nc2c1	Huh7	WILD TYPE	-	0.001 µM
COc1ccc2c(O[C@@H]3C[C@@H](C(=O)O)N(C(=O)OC(C)(C)C)C3)cc(-c3ccccc3)nc2c1	Huh7	1b	-	<0.05 µM
CC1CCC(C(=O)N(c2cc(-c3ccc(NC(=O)c4cncc(F)c4)cc3)sc2C(=O)O)C(C)C)CC1	-	1a	-	>0.5 µM
Nc1ncnc2c1c(-c1ccsc1)cn2[C@@H]1O[C@H](CO)[C@@H](O)[C@H]1F	HCV replicon	2a	-	13.21 µM
Cc1cc(C(=O)Nc2ccc(-c3cc(N(C(=O)C4CCC(C)CC4)C(C)C)c(C(=O)O)s3)cc2)no1	-	1b	-	<0.5 µM
C=C[C@H]1C[C@@]1(NC(=O)[C@@H]1C[C@@H](Oc2cc(-c3ccccc3)nc3cc(OC)ccc23)CN1C(=O)[C@@H](NC(=O)OC(C)(C)C)C(C)(C)C)C(=O)NS(=O)(=O)C1(CCC)CC1	Huh7	1b	-	<0.05 µM
N#Cc1c(Nc2ccc(Cc3ccccc3)cc2)s[nH]c1=O	Huh7	-	-	>50 µM
CC1CCC(C(=O)N(c2cc(-c3ccc(NC(=O)c4ccns4)cc3)sc2C(=O)O)C(C)C)CC1	-	1a	-	>0.5 µM
CNC(=O)c1c(-c2ccc(F)cc2)oc2cc(-c3cc(C)nn3C)c(OC(C)C)cc12	Huh7	-	-	<10 µM
COCCCNc1s[nH]c(=O)c1C#N	Huh7	-	-	>50 µM

Repeating the final 6 entries:

Cc1cc(C(=O)Nc2ccc(-c3cc(N(C(=O)C4CCC(C)CC4)C(C)C)c(C(=O)O)s3)cc2)no1 ; strain or isolate: 1b ; value: <0.5 µM
C=C[C@H]1C[C@@]1(NC(=O)[C@@H]1C[C@@H](Oc2cc(-c3ccccc3)nc3cc(OC)ccc23)CN1C(=O)[C@@H](NC(=O)OC(C)(C)C)C(C)(C)C)C(=O)NS(=O)(=O)C1(CCC)CC1 ; cell line: Huh7 ; strain or isolate: 1b ; value: <0.05 µM
N#Cc1c(Nc2ccc(Cc3ccccc3)cc2)s[nH]c1=O ; cell line: Huh7 ; value: >50 µM
CC1CCC(C(=O)N(c2cc(-c3ccc(NC(=O)c4ccns4)cc3)sc2C(=O)O)C(C)C)CC1 ; strain or isolate: 1a ; value: >0.5 µM
CNC(=O)c1c(-c2ccc(F)cc2)oc2cc(-c3cc(C)nn3C)c(OC(C)C)cc12 ; cell line: Huh7 ; value: <10 µM
COCCCNc1s[nH]c(=O)c1C#N ; cell line: Huh7 ; value: >50 µM